Data published in patent US20220251595A1, “ENGINEERED ATRLP23 PATTERN RECOGNITION RECEPTORS AND METHODS OF USE” (priority 2019, published 2022).

How the values were obtained:
corn protoplasts [1] = experiment: Calcium burst in transiently transfected corn protoplasts, apoaequorin luminescence reporter; settings: for strength of response relative to control construct AtRLP23-ejmAtRLP42-AtEFR-3×FLAG: FIG. 8; for Ca^2+ increase in response to CgNLP24b (aequorin luminescence): 1 μM CgNLP24b; for Ca^2+ increase in response to FgNLP24c (aequorin luminescence): 1 μM FgNLP24c; for Ca^2+ increase in response to FvNLP24a (aequorin luminescence): 1 μM FvNLP24a; for Ca^2+ increase in response to PpNLP20 (aequorin luminescence): 1 μM PpNLP20; for Ca^2+ increase in response to SmNLP24 (aequorin luminescence): 1 μM SmNLP24
corn protoplasts [2] = experiment: Calcium burst in transiently transfected corn protoplasts, R-GECO1.2 fluorescence reporter; format: cell-based, Zea mays; settings: 1 μM PpNLP20
[3] = transient expression in corn protoplasts

| Molecule | strength of response relative to control construct AtRLP23-ejmAtRLP42-AtEFR-3×FLAG (corn protoplasts [1]; FgNLP24c) | strength of response relative to control construct AtRLP23-ejmAtRLP42-AtEFR-3×FLAG (corn protoplasts [1]; all other NLPs (CgNLP24b, FvNLP24a, SmNLP24)) | response compared with AtRLP23-eJMAtRLP42-3×FLAG (corn protoplasts [1]; FIG. 6, for the five peptides PpNLP20, CgNLP24b, FgNLP24c, FvNLP24a, SmNLP24) | Ca^2+ increase in response to AfNLP24a (aequorin luminescence) (corn protoplasts [1]; transient expression in corn protoplasts, 1 μM AfNLP24a) | Ca^2+ increase in response to AfNLP24b (aequorin luminescence) (corn protoplasts [1]; transient expression in corn protoplasts, 1 μM AfNLP24b) | Ca^2+ increase in response to AfNLP24c (aequorin luminescence) (corn protoplasts [1]; transient expression in corn protoplasts, 1 μM AfNLP24c) | Ca^2+ increase in response to ApNLP24a (aequorin luminescence) (corn protoplasts [1]; transient expression in corn protoplasts, 1 μM ApNLP24a) | Ca^2+ increase in response to CgNLP24b (aequorin luminescence) (corn protoplasts [1]; [3]) | Ca^2+ increase in response to FgNLP24c (aequorin luminescence) (corn protoplasts [1]; [3]) | Ca^2+ increase in response to FvNLP24a (aequorin luminescence) (corn protoplasts [1]; [3]) | Ca^2+ increase in response to PpNLP20 (aequorin luminescence) (corn protoplasts [1]; [3]) | Ca^2+ increase in response to SmNLP24 (aequorin luminescence) (corn protoplasts [1]; [3]) | response to PpNLP20 compared to transient expression of AtRLP23-3×FLAG (total transient increase of fluorescence) (corn protoplasts [2]; Example 2, FIG. 3, 40 minutes, 96-well) | Ca^2+ increase in response to PpNLP20 treatment (R-GECO1.2 fluorescence) (corn protoplasts [2]; [3]) |
| --- | --- | --- | --- | --- | --- | --- | --- | --- | --- | --- | --- | --- | --- | --- |
| AtRLP23-AtPEPR1-3×FLAG: AtRLP23 apoplastic and eJM domains, AtPEPR1 TM and kinase domains, 3×FLAG; SEQ ID NO: 572, 573 (protein, Fusion protein) MSKALLHLHFLSLFLLCCVCHSSIFTLNFHFTGIVACRPHQIQAFTKFTNEFDTRGCNNSDTFNGVWCDNSTGAVAVLQLRKCLSGTLKSNSSLFGFHQLRYVDLQNNNLTSSSLPSGFGNLKRLEGLFLSSNGFLGQVPSSFSNLTMLAQLDLSYNKLTGSFPLVRGLRKLIVLDLSYNHFSGTLNPNSSLFELHQLRYLNLAFNNFSSSLPSKFGNLHRLENLILSSNGFSGQVPSTISNLTRLTKLYLDQNKLTSSFPLVQNLTNLYELDLSYNKFFGVIPSSLLTLPFLAHLALRENNLAGSVEVSNSSTSSRLEIMYLGSNHFEGQILEPISKLINLKHLDLSFLNTSYPIDLKLFSSLKSLRSLDLSGNSISSASLSSDSYIPLTLEMLTLRHCDINEFPNILKTLKELVYIDISNNRMKGKIPEWLWSLPLLQSVTLGNNYFTGFQGSAEILVNSSVLLLYLDSNNFEGALPDLPLSIKGFGVASNSFTSEIPLSICNRSSLAAIDLSYNNFTGPIPPCLRNLELVYLRNNNLEGSIPDALCDGASLRTLDVSHNRLTGKLPRSFVNCSSLKFLSVINNRIEDTFPFWLKALPNLQVLTLRSNRFYGPISPPHQGPLGFPELRIFEISDNKFTGSLPPNYFVNWKASSRTMNQDGGLYMVYEEKLFDEGGYGYTDALDLQYKGLHMEQAKALTSYAAIDFSGNRLEGQIPESIGLLKALIAVNISNNAFTGHIPLSMANLENLESLDMSRNQLSGTIPNGLGSISFLAYINVSHNQLTGEIPQGTQITGQSKSSFEGNAGLCGLPLKESCFGTGAPPMYHQKQEDKEEEEEEEEEEEEVLNGRIVLIAVLSSLLVLVVVLALVFICLRRRKGRPEKDAYVFTQEEGPSLLLNKVLAATDNLNEKYTIGRGAHGIVYRASLGSGKVYAVKRLVFASHIRANQSMMREIDTIGKVRHRNLIKLEGFWLRKDDGLMLYRYMPKGSLYDVLHGVSPKENVLDWSARYNVALGVAHGLAYLHYDCHPPIVHRDIKPENILMDSDLEPHIGDFGLARLLDDSTVSTATVTGTTGYIAPENAFKTVRGRESDVYSYGVVLLELVTRKRAVDKSFPESTDIVSWVRSALSSSNNNVEDMVTTIVDPILVDELLDSSLREQVMQVTELALSCTQQDPAMRPTMRDAVKLLEDVKHLARSCSSDSVRSDYKDHDGDYKDHDLDAAAADYKDDDDK | similar | weaker |  |  |  |  |  |  |  |  |  |  |  |  |
| AtRLP23-eJMAtRLP42-AtEFR-3×FLAG: AtRLP23 apoplastic domain, AtRLP42 eJM domain, AtEFR TM and cytoplasmic domains, 3×FLAG; SEQ ID NO: 61, 62 (protein, Fusion protein) MSKALLHLHFLSLFLLCCVCHSSIFTLNFHFTGIVACRPHQIQAFTKFTNEFDTRGCNNSDTFNGVWCDNSTGAVAVLQLRKCLSGTLKSNSSLFGFHQLRYVDLQNNNLTSSSLPSGFGNLKRLEGLFLSSNGFLGQVPSSFSNLTMLAQLDLSYNKLTGSFPLVRGLRKLIVLDLSYNHFSGTLNPNSSLFELHQLRYLNLAFNNFSSSLPSKFGNLHRLENLILSSNGFSGQVPSTISNLTRLTKLYLDQNKLTSSFPLVQNLTNLYELDLSYNKFFGVIPSSLLTLPFLAHLALRENNLAGSVEVSNSSTSSRLEIMYLGSNHFEGQILEPISKLINLKHLDLSFLNTSYPIDLKLFSSLKSLRSLDLSGNSISSASLSSDSYIPLTLEMLTLRHCDINEFPNILKTLKELVYIDISNNRMKGKIPEWLWSLPLLQSVTLGNNYFTGFQGSAEILVNSSVLLLYLDSNNFEGALPDLPLSIKGFGVASNSFTSEIPLSICNRSSLAAIDLSYNNFTGPIPPCLRNLELVYLRNNNLEGSIPDALCDGASLRTLDVSHNRLTGKLPRSFVNCSSLKFLSVINNRIEDTFPFWLKALPNLQVLTLRSNRFYGPISPPHQGPLGFPELRIFEISDNKFTGSLPPNYFVNWKASSRTMNQDGGLYMVYEEKLFDEGGYGYTDALDLQYKGLHMEQAKALTSYAAIDFSGNRLEGQIPESIGLLKALIAVNISNNAFTGHIPLSMANLENLESLDMSRNQLSGTIPNGLGSISFLAYINVSHNQLTGEIPQGTQITGQSKSSFEGNAGLCGLPLKESCFGTGAPPMYHQKQEDKEEEEAEEDEQELNWKVVSGICIGIASLLLIIIVASLCWFMKRKKKNNASDGNPSDSTTLGMFHEKVSYEELHSATSRFSSTNLIGSGNFGNVFKGLLGPENKLVAVKVLNLLKHGATKSFMAECETFKGIRHRNLVKLITVCSSLDSEGNDFRALVYEFMPKGSLDMWLQLEDLERVNDHSRSLTPAEKLNIAIDVASALEYLHVHCHDPVAHCDIKPSNILLDDDLTAHVSDFGLAQLLYKYDRESFLNQFSSAGVRGTIGYAAPEYGMGGQPSIQGDVYSFGILLLEMFSGKKPTDESFAGDYNLHSYTKSILSGCTSSGGSNAIDEGLRLVLQVGIKCSEEYPRDRMRTDEAVRELISIRSKFFSSKTTITESPRDAPQSSPQEWMLNTDMHTMASDYKDHDGDYKDHDLDAAAADYKDDDDK |  |  | stronger response | Ca^2+ increase | Ca^2+ increase | Ca^2+ increase | Ca^2+ increase | Ca^2+ increase | Ca^2+ increase | Ca^2+ increase | significant Ca^2+ increase | Ca^2+ increase |  |  |
| AtRLP23-eJMAtRLP42-3×FLAG: AtRLP23 with the AtRLP42 eJM domain, 3×FLAG; SEQ ID NO: 57, 58 (protein, Fusion protein) MSKALLHLHFLSLFLLCCVCHSSIFTLNFHFTGIVACRPHQIQAFTKFTNEFDTRGCNNSDTFNGVWCDNSTGAVAVLQLRKCLSGTLKSNSSLFGFHQLRYVDLQNNNLTSSSLPSGFGNLKRLEGLFLSSNGFLGQVPSSFSNLTMLAQLDLSYNKLTGSFPLVRGLRKLIVLDLSYNHFSGTLNPNSSLFELHQLRYLNLAFNNFSSSLPSKFGNLHRLENLILSSNGFSGQVPSTISNLTRLTKLYLDQNKLTSSFPLVQNLTNLYELDLSYNKFFGVIPSSLLTLPFLAHLALRENNLAGSVEVSNSSTSSRLEIMYLGSNHFEGQILEPISKLINLKHLDLSFLNTSYPIDLKLFSSLKSLRSLDLSGNSISSASLSSDSYIPLTLEMLTLRHCDINEFPNILKTLKELVYIDISNNRMKGKIPEWLWSLPLLQSVTLGNNYFTGFQGSAEILVNSSVLLLYLDSNNFEGALPDLPLSIKGFGVASNSFTSEIPLSICNRSSLAAIDLSYNNFTGPIPPCLRNLELVYLRNNNLEGSIPDALCDGASLRTLDVSHNRLTGKLPRSFVNCSSLKFLSVINNRIEDTFPFWLKALPNLQVLTLRSNRFYGPISPPHQGPLGFPELRIFEISDNKFTGSLPPNYFVNWKASSRTMNQDGGLYMVYEEKLFDEGGYGYTDALDLQYKGLHMEQAKALTSYAAIDFSGNRLEGQIPESIGLLKALIAVNISNNAFTGHIPLSMANLENLESLDMSRNQLSGTIPNGLGSISFLAYINVSHNQLTGEIPQGTQITGQSKSSFEGNAGLCGLPLKESCFGTGAPPMYHQKQEDKEEEEAEEDEQELNWKAVAIGYGSGLLLGLAIAQVIASYKPEWLVKIIGLNKRRKRSDYKDHDGDYKDHDLDAAAADYKDDDDK |  |  |  |  |  |  |  | Ca^2+ increase | Ca^2+ increase | Ca^2+ increase | Ca^2+ increase | Ca^2+ increase | statistically significant increase of response | Ca^2+ increase |
